Compound potency records, mixed from different reports. Data source: NIAID ChemDB in PubChem.

All rows: target-level tests; agent: HIV-1; protein: gp120; read-out: IC50

a–b is a range or a potency band. An empty or dashed field is not shown. ICn: concentration for n% inhibition. Rows are shuffled and stem from different studies.

compound | strain or isolate | read by | result
NS(=O)(=O)c1ccc(NC(=O)c2ccc(SSc3ccc(C(=O)Nc4ccc(S(N)(=O)=O)cc4)cc3)cc2)cc1 | - | - | >100 µM
O=C(O)[C@H](Cc1ccccc1)NS(=O)(=O)c1ccc(N2CCC(CCCC3CCN(S(=O)(=O)c4cc(Br)c(Cl)s4)CC3)CC2)c(Cl)c1 | - | fluorescence | 1–10 µM
O=C(O)CCC1=C(CC(=O)O)c2cc3nc(cc4[nH]c(cc5[nH]c(cc1n2)c(CC(=O)O)c5CCC(=O)O)c(CCC(=O)O)c4CC(=O)O)C(CC(=O)O)=C3CCC(=O)O | - | - | >60 µg/mL
COC(=O)C(=O)N1CCC[C@@H]1C(=O)N[C@H](Cc1ccccc1)C(=O)OCc1ccccc1 | - | ELISA | >400 µg/mL
CC1=C(CCC(=O)O)c2cc3[nH]c(cc4nc(cc5[nH]c(cc1n2)c(CCC(=O)O)c5CC(=O)O)C(CCC(=O)O)=C4C)c(CCC(=O)O)c3CC(=O)O | - | - | >60 µg/mL
O=C(O)[C@H](Cc1ccc(Cl)cc1)NS(=O)(=O)c1cnc(N2CCC(CCCCCC3CCN(S(=O)(=O)c4cc(Br)c(Cl)s4)CC3)CC2)c(Br)c1 | - | fluorescence | 1–10 µM
O=C1O[C@@H]2[C@@H](OC(=O)c3cc(O)c(O)c(O)c3-c3c1cc(O)c(O)c3O)[C@@H](O)O[C@@H]1COC(=O)c3cc(O)c(O)c(O)c3-c3c(O)c(O)c4oc(=O)c5c(c(O)c(O)c6oc(=O)c3c4c65)-c3c(cc(O)c(O)c3O)C(=O)O[C@@H]21 | - | fluorescence | 0.14 µM
O=S(=O)(O)c1cc(N=C=S)ccc1/C=C/c1ccc(N=C=S)cc1S(=O)(=O)O | - | binding | >10 µM
CCCCCCC[C@H]1CC2CCC3C(C(=O)OCCCCCCCCCC4N=C(N)N5CCCC5=C4C(=O)OCCCCN=C(N)N)=C(C)NC(=N1)N23 | - | - | 25 µM
O=C(O)[C@H](Cc1ccccc1)NS(=O)(=O)c1cnc(N2CCC(CCCCC3CCN(S(=O)(=O)c4cc(Br)c(Cl)s4)CC3)CC2)c(C(F)(F)F)c1 | - | fluorescence | 1–10 µM
C1=Cc2nc1c(-c1ccncc1)c1ccc([nH]1)c(-c1ccncc1)c1nc(c(-c3ccncc3)c3ccc([nH]3)c2-c2ccncc2)C=C1 | - | - | <60 µg/mL
CSCC[C@H](NC(=O)[C@@H]1CCCN1C(=O)[C@H](Cc1cnc[nH]1)NC(=O)[C@H](Cc1c[nH]c2ccccc12)NC(=O)[C@@H](N)Cc1ccccc1)C(=O)N[C@@H](Cc1cnc[nH]1)C(=O)N[C@@H](CC(=O)O)C(=O)O | ADA | ELISA | >500 µM
CN[C@@H]1[C@H](O[C@@H]2OC[C@@H](O)[C@H](O)[C@H]2O)[C@@H](O)[C@H](O[C@H]2c3cc(C)c(C(=O)N[C@H](C)C(=O)O)c(O)c3-c3c(cc4c(c3O)C(=O)c3cc(OC)cc(O)c3C4=O)[C@@H]2O)O[C@@H]1C | - | ELISA | 27.5 µg/mL
O=C(O)C1(NS(=O)(=O)c2cnc(N3CCC(CCCC4CCN(S(=O)(=O)c5cc(Br)c(Cl)s5)CC4)CC3)c(Br)c2)CCCCC1 | - | fluorescence | 1 µM
CCCCCCCCC[C@H]1CC2CCC3C(C(=O)OCCCCN=C(N)N)[C@@H](C)N=C(N1)N23 | - | - | >100 µM
O=C(O)C[C@@H]1CCCN1S(=O)(=O)c1cnc(N2CCC(CCCC3CCN(S(=O)(=O)c4cc(Br)c(Cl)s4)CC3)CC2)c(Br)c1 | - | fluorescence | 1–10 µM
CSCC[C@H](NC(=O)[C@H](CCSC)NC(=O)[C@H](C)NC(=O)[C@H](CCC(=O)O)NC(=O)[C@H](CO)NC(=O)[C@H](Cc1c[nH]c2ccccc12)NC(=O)[C@@H]1CCCN1)C(=O)O | HXB2 | ELISA | >500 µM
C=Cc1c(C)c2cc3[nH]c(cc4nc(cc5nc(cc1[nH]2)C(C)=C5CCC(=O)OC)C(CCC(=O)OC)=C4C)c(C)c3C=C | - | - | >60 µg/mL
O=C(O)C[C@@H]1C(=O)O[C@H]2[C@@H]3OC(=O)c4cc(O)c(O)c(O)c4-c4c(cc(O)c(O)c4O)C(=O)OC[C@H]2O[C@@H](OC(=O)c2cc(O)c(O)c(O)c2)[C@@H]3OC(=O)c2cc(O)c(O)c3c2[C@H]1[C@H](O)C(=O)O3 | - | fluorescence | 0.2 µM
CC1=C(CCC(=O)O)c2cc3[nH]c(cc4[nH]c(cc5nc(cc1n2)C(CCC(=O)O)=C5CC(=O)O)c(CCC(=O)O)c4CC(=O)O)c(CCC(=O)O)c3CC(=O)O | - | - | >60 µg/mL
NS(=O)(=O)c1ccc(NC(=O)c2ccccc2SSc2ccccc2C(=O)Nc2ccc(S(N)(=O)=O)cc2)cc1 | - | - | >100 µM
O=C(O)CN(CCc1ccc(F)cc1)S(=O)(=O)c1cnc(N2CCC(CCCC3CCN(S(=O)(=O)c4cc(Br)c(Cl)s4)CC3)CC2)c(Br)c1 | - | fluorescence | <1 µM
C=Cc1c(C)c2cc3nc(cc4[nH]c(cc5nc(cc1[nH]2)C(C)=C5CC)c(C)c4C(=O)O)C(CCC(=O)O)=C3C | - | - | >60 µg/mL
CN1C(=O)C(c2cc(Cl)c(O)c(Cl)c2)NC(=O)[C@@H]2NC(=O)C(c3cc(Cl)c(O)c(Cl)c3)NC(=O)[C@H](NC(=O)C(=O)c3cc(Cl)c(O)c(Cl)c3)Cc3c[nH]c4c(cccc34)-c3cc2cc(c3O)Oc2ccc(cc2)CC1C(=O)NC(C(=O)O)c1ccc(O)cc1 | IIIB | ELISA | 0.31 µM

A second listing of 3 rows from above:

compound	strain or isolate	read by	result
CSCC[C@H](NC(=O)[C@H](CCSC)NC(=O)[C@H](C)NC(=O)[C@H](CCC(=O)O)NC(=O)[C@H](CO)NC(=O)[C@H](Cc1c[nH]c2ccccc12)NC(=O)[C@@H]1CCCN1)C(=O)O	HXB2	ELISA	>500 µM
O=C(O)C[C@@H]1C(=O)O[C@H]2[C@@H]3OC(=O)c4cc(O)c(O)c(O)c4-c4c(cc(O)c(O)c4O)C(=O)OC[C@H]2O[C@@H](OC(=O)c2cc(O)c(O)c(O)c2)[C@@H]3OC(=O)c2cc(O)c(O)c3c2[C@H]1[C@H](O)C(=O)O3	-	fluorescence	0.2 µM
O=C(O)C1(NS(=O)(=O)c2cnc(N3CCC(CCCC4CCN(S(=O)(=O)c5cc(Br)c(Cl)s5)CC4)CC3)c(Br)c2)CCCCC1	-	fluorescence	1 µM